Results taken from the supplement of paper PMC3578754.

What was measured:
Experiment in all cases: fold change of IC50 against reference virus; higher = more resistant
efavirenz = compound: O=C1Nc2ccc(Cl)cc2[C@@](C#CC2CC2)(C(F)(F)F)O1 [efavirenz]
Procedure: (§1)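 Cell-culture drug susceptibility tests of virus bearing the reverse transcriptase of each isolate, gathered from many studies.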

nevirapine = compound: Cc1ccnc2c1NC(=O)c1cccnc1N2C1CC1 [nevirapine]
Procedure: as §1

delavirdine = compound: CC(C)Nc1cccnc1N1CCN(C(=O)c2cc3cc(NS(C)(=O)=O)ccc3[nH]2)CC1 [delavirdine]
Procedure: as §1

Test System	fold change of IC50 against reference virus (efavirenz)	fold change of IC50 against reference virus (nevirapine)	fold change of IC50 against reference virus (delavirdine)
HIV-1 isolate 1244 (reverse transcriptase changes: K102Q E138A S162C K277R, study 53)	1	1	1
HIV-1 isolate 1272 (reverse transcriptase changes: K102Q S162C G190A K277R I293V, study 55)	7	96	0.4
HIV-1 isolate 1292 (reverse transcriptase changes: K20R V21I V35T T39R K43E V60I K103N K122E D123N K173S Q174K D177E Q207A R211N V245Q A272P E291D I293V P294T E312D D324E I326R, study 14)	18	33	26
HIV-1 isolate 1337 (reverse transcriptase changes: K20R V21I V35T T39G V60I K103N K122E D123N K173S Q174K D177E V179I Q207A R211N V245Q A272P E291D I293V P294T E312D D324E I326R, study 14)	6.6	11	22
HIV-1 isolate 1368 (reverse transcriptase changes: K102Q K103R S162C I178V K277R I293V K347R R358K V435I S468P, study 111)	1.3	1.1	1
HIV-1 isolate 1380 (reverse transcriptase changes: K102Q S162C F227L K277R, study 53)	0.5	3	0.1
HIV-1 isolate 1401 (reverse transcriptase changes: K103N K122E E169D T200E Q207E, study 25)	34	50	150
HIV-1 isolate 1411 (reverse transcriptase changes: K11T K20R V21I V35T T39K K43E D123N K173T Q174K D177E V179I Y181C I202V Q207A R211S V245Q E248D T286A E291D V292I I293V E312D, study 14)	1.8	208	45
HIV-1 isolate 1420 (reverse transcriptase changes: V21I V35T T39S K49Q E138G K173S Q174K D177E V179I Y181C Q207A R211N V245Q A272P E291D I293V P294T E312D D324E I326R, study 14)	0.3	23	6.6
HIV-1 isolate 1434 (reverse transcriptase changes: V35T E40D I50V K122E D123S I135T I142T K173S D177E V179I Y181C Q207A R211S F214L V245Q A272P E291D I293V P294T L310I E312D D324E, study 14)	0.9	55	30
HIV-1 isolate 1468 (reverse transcriptase changes: K101E K102Q S162C G190A K277R, study 110)	123	500	2
HIV-1 isolate 1490 (reverse transcriptase changes: K11T K20R V21I V35T T39K K43E D123N K173T Q174K D177E V179I Y181S I202V Q207A R211S V245Q E248D T286A E291D V292I I293V E312D, study 14)	1.1	35	6.9

Fold change is the IC50 on the isolate divided by the IC50 on a reference virus; 1 = unchanged, higher = more resistant. Changes are given against the subtype B consensus. No active / inactive call. The values were gathered from many studies (numbered anew) with different assays, which the source does not name. Most viruses are clinical isolates; some are laboratory strains or clones with known resistance changes. Isolates with mixed residues are left out; stretches that were not sequenced show no change. Round top values that many isolates share are read here as limits; other very high values and 0.1 may be limits too.
